Measured values as given in US6767895B2 (priority 2000, dated 2004).

Tested on: motor nerve of a cutaneus pectoris muscle of frog
Experiment: Skeletal neuromuscular junction: extracellular recording, frog cutaneus pectoris muscle with motor nerve stimulation
Conditions: peptide 1 μM; motor nerve electrically stimulated every minute

Xaa2-Cys-Lys-Thr-Asn-Lys-Met-Ser-Cys-Ser-Leu-His-Xaa1-Xaa1-Cys-Cys-Arg-Phe-Arg-Cys-Cys-Phe-His-Gly-Lys-Cys-Gln-Thr-Ser-Val-Phe-Gly-Cys-Xaa4-Val-Asp-Xaa3
effect on motor nerve / neuromuscular junction (extracellular recording): produces repetitive action potentials in motor nerve
